For 1 molecule, MIC and Selectivity Index results are on record in ChEMBL document CHEMBL2375250, “Efficient synthesis of new (R)-2-amino-1-butanol derived ureas, thioureas and acylthioureas and in vitro evaluation of their antimycobacterial activity” (Eur J Med Chem, 2013).

In brackets after ≈: the same amount, converted by molar mass.

The subject of assay [1] is Mycobacterium tuberculosis. Description: Antimycobacterial activity against Mycobacterium tuberculosis H37Rv assessed as growth inhibition after 45 days by Lowenstein-Jensen method.
Assay [2] concerns Mycobacterium tuberculosis. As to the kind of experiment: Antimycobacterial activity against multidrug-resistant Mycobacterium tuberculosis 43 assessed as growth inhibition after 45 days by Lowenstein-Jensen method.
The nature of assay [3]: Selectivity index, ratio of IC50 for HEK293T cells to MIC for Mycobacterium tuberculosis H37Rv.

The term MIC denotes the lowest concentration that inhibits growth of the organism.

With `CC[C@H](CO)NC(=S)NP(=O)(c1ccccc1)c1ccccc1`, the minimum inhibitory concentration (MIC) in assay [1] was 5.74 µM (≈ 2 µg/mL); in assay [2], 11.5 µM (≈ 4 µg/mL). Moreover, in assay [3], the Selectivity Index turned out to be 31.3.
